Measured values as given in patent publication US20040209239.

Protein sequences, listed by entry. Tags and fused reporters are not part of them. Lines headed by an entry give the natural chain unless they say otherwise; changes in a name come on top. Residues count along the entry.
UniProt Q15554, 43-542: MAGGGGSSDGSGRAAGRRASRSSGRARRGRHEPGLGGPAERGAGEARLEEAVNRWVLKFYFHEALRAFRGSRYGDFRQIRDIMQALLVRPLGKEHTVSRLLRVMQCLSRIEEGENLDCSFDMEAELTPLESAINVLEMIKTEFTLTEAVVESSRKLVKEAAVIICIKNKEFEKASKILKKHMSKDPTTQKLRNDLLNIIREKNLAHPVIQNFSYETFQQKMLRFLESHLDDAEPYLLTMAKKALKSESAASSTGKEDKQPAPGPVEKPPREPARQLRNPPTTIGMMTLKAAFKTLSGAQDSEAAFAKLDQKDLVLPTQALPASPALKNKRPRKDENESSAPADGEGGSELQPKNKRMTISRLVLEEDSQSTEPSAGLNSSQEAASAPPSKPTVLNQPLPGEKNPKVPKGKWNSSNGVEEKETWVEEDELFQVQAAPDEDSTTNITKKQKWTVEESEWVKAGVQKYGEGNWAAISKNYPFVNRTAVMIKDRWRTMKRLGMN
UniProt O95271: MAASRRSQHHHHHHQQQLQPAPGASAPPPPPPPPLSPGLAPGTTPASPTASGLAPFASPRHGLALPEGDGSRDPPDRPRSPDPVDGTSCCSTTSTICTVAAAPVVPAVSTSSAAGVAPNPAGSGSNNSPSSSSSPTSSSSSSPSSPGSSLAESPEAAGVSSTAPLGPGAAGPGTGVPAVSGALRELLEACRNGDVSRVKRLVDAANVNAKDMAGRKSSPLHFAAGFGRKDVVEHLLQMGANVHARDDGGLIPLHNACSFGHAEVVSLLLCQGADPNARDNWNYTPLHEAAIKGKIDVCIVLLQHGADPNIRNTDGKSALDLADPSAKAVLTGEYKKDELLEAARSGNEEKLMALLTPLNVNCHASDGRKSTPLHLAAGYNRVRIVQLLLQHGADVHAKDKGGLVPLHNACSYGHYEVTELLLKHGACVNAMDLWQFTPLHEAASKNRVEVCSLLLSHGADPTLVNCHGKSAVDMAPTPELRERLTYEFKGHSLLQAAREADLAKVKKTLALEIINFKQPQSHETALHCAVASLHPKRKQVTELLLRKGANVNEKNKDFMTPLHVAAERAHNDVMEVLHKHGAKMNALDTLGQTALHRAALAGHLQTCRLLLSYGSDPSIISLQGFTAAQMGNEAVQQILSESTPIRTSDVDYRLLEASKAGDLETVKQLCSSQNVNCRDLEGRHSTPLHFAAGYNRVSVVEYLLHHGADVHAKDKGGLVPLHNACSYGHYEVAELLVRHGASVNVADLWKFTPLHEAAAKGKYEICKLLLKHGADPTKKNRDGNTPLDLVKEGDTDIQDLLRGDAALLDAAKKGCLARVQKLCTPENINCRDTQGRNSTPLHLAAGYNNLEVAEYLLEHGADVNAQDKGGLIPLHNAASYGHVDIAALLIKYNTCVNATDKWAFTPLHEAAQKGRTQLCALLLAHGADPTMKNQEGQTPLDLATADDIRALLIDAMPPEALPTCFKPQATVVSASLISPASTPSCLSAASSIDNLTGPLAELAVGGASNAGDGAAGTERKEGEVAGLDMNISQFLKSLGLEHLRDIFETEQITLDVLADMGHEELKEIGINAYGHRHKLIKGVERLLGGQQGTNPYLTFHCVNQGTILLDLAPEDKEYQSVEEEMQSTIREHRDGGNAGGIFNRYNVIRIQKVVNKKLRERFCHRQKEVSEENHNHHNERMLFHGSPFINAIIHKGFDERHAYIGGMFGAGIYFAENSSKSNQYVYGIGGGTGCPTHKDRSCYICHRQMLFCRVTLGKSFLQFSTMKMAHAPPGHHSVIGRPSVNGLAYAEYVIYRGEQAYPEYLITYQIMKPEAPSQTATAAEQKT
UniProt P09874, 2-1014: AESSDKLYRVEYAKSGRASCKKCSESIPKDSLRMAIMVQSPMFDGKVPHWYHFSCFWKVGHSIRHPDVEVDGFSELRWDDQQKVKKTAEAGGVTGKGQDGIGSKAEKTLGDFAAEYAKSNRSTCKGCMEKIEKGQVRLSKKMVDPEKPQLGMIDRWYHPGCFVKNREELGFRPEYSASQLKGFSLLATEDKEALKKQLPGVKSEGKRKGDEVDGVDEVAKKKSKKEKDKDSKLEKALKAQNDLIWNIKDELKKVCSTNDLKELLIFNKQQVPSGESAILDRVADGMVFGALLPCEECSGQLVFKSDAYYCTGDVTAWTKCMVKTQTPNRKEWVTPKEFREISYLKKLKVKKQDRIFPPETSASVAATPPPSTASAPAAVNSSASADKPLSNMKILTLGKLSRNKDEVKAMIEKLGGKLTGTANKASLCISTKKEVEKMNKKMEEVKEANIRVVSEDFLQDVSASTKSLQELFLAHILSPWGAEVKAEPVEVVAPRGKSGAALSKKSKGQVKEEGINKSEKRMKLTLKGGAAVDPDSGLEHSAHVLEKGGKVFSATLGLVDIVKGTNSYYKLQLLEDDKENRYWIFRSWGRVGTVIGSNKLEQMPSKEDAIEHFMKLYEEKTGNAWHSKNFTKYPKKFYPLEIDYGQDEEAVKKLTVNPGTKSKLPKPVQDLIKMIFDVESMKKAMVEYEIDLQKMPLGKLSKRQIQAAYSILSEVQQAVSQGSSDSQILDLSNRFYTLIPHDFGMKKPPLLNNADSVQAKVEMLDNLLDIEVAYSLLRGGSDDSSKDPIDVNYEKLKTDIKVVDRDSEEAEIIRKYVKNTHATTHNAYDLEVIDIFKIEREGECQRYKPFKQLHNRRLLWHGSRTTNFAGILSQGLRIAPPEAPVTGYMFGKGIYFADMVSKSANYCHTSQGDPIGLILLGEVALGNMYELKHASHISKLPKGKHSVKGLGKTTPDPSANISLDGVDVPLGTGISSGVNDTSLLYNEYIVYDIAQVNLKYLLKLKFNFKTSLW

What was measured:
[1] = target: TRF2 (nuclear extract) (Homo sapiens) (UniProt Q15554); assay: pull-down; conditions: weak without EBNA1 (HeLa, low salt), stabilized by EBNA1; protein in an extract; protein details: GenBank id from MS/MS
Tankyrase (Homo sapiens) = Tankyrase (Homo sapiens) (UniProt O95271); assay: pull-down; conditions: only with EBNA1; stable to 300 mM KCl; likely indirect; protein in an extract; protein details: GenBank id from MS/MS
PARP1 (Homo sapiens) = PARP1 (Homo sapiens) (UniProt P09874); assay: pull-down; conditions: equal with or without EBNA1 in single round; protein in an extract; protein details: GenBank id from MS/MS
TRF1 (Homo sapiens) = target: T1, TRF1 (Homo sapiens) (UniProt P54274); assay: pull-down; conditions: EBNA1-dependent; SL1 and Raji extracts; protein in an extract
T1 sequence (looked up, limits assumed): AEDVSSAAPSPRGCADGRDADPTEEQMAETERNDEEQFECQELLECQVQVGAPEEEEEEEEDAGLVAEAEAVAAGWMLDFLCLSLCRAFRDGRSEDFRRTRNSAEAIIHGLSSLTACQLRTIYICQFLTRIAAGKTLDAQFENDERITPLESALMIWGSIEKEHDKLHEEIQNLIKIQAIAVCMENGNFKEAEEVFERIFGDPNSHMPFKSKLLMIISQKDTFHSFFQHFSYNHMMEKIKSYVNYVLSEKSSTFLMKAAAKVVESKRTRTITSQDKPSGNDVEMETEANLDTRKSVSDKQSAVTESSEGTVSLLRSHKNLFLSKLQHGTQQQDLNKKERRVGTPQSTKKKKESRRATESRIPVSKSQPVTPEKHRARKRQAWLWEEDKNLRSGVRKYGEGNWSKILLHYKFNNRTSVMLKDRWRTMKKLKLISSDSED

[2] = target: T2, hRAP1 (TRF2-interacting telomeric RAP1) (Homo sapiens) (UniProt Q9NYB0); assay: pull-down; conditions: SL1 and Raji extracts; interacts with TRF2; protein in an extract; protein details: GenBank id from MS/MS
T2 sequence (looked up, limits assumed): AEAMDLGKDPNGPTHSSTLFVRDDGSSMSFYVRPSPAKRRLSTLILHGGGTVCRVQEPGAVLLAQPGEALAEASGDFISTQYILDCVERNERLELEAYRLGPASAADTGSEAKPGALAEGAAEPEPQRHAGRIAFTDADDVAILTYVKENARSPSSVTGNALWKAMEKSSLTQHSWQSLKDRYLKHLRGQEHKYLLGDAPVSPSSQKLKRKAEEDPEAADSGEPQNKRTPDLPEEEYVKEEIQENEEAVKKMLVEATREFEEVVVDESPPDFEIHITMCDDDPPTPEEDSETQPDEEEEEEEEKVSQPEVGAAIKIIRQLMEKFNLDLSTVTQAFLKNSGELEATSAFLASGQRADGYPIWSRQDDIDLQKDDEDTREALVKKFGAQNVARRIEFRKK

[3] = target: T3, EBNA1 (Epstein-Barr virus) (UniProt P03211); assay: footprint; conditions: DNase I; four sites, induces hypersensitivity at nonamers; purified recombinant protein; protein details: baculovirus-expressed in SF9
T3 sequence (looked up, limits assumed): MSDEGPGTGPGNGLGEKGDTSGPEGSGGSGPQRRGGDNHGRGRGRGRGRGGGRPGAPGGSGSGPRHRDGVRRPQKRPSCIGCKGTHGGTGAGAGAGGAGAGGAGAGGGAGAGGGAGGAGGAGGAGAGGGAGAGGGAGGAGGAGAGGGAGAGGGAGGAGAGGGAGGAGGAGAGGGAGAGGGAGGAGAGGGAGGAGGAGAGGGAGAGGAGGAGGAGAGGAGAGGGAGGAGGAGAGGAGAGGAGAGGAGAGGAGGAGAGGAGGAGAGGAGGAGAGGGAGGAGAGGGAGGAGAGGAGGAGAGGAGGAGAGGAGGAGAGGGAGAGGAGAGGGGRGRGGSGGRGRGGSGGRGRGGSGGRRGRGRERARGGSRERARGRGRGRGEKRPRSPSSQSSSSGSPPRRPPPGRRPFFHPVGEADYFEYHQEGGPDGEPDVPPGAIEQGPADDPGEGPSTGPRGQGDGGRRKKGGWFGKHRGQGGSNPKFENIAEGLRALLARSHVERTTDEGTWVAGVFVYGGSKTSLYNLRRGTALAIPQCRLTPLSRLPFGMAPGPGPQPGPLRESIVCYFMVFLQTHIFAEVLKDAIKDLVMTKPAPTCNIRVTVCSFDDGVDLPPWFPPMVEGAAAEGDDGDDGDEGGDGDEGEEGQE

[4] = target: T4, EBNA1 (Raji cells) (Epstein-Barr virus) (UniProt P03211); assay: binding assay; conditions: ChIP in Raji cells; protein in cells
T4 sequence (looked up, limits assumed): T3 sequence (looked up, limits assumed)

[5] = target: T5, TRF1 (Raji cells) (Homo sapiens) (UniProt P54274); assay: binding assay; conditions: ChIP in Raji cells; OriP, amplicon for this experiment not stated; protein in cells
T5 sequence (looked up, limits assumed): T1 sequence (looked up, limits assumed)

[6] = target: T6, hRAP1 (Raji cells) (Homo sapiens) (UniProt Q9NYB0); assay: binding assay; conditions: ChIP in Raji cells; OriP, amplicon for this experiment not stated; protein in cells
T6 sequence (looked up, limits assumed): T2 sequence (looked up, limits assumed)

[7] = target: Tankyrase (Raji cells) (Homo sapiens) (UniProt O95271); assay: binding assay; conditions: ChIP in Raji cells; likely indirect; protein in cells
[8] = target: TRF2 (Raji cells) (Homo sapiens) (UniProt Q15554); assay: binding assay; conditions: ChIP in Raji cells; lower efficiency than EBNA1; protein in cells

Measured: binding result

AACCCTAATTCGATAGCATATGCTTCCCGTTGGGTAACATATGCTATTGAATTAGGGTTAGTCTGGATAGTATATACTACTACCCGGGAAGCATATGCTACCCGTTTAGGGTTA (double strand) [EBV oriP Dyad Symmetry (DS) element]
binds: [1] | Tankyrase (Homo sapiens) | PARP1 (Homo sapiens) | TRF1 (Homo sapiens) | [2] | [3]

GAGATGGACATCCAGTCTTTACGGCTTGTCCCCACCCCATGGATTTCTATTGTTAAAGATATTCAGAATGTTTCATTCCTACACTAGTATTTATTGCCCAAGGGGTTTGTGAGGGTTATATTGGTGTCATAGCACAATGCCACCACTGAACCCCCCGTCCAAATTTTATTCTGGGGGCGTCACCTGAAACCTTGTTTTCGAGCACCTCACATACACCTTACTGTTCACAACTCAGCAGTTATTCTATTAGCTAAACGAAGGAGAATGAAGAAGCAGGCGAAGATTCAGGAGAGTTCACTGCCCGCTCCTTGATCTTCAGCCACTGCCCTTGTGACTAAAATGGTTCACTACCCTCGTGGAATCCTGACCCCATGTAAATAAAACCGTGACAGCTCATGGGGTGGGAGATATCGCTGTTCCTTAGGACCCTTTTACTAACCCTAATTCGATAGCATATGCTTCCCGTTGGGTAACATATGCTATTGAATTAGGGTTAGTCTGGATAGTATATACTACTACCCGGGAAGCATATGCTACCCGTTTAGGGTTAACAAGGGGGCCTTATAAACACTATTGCTAATGCCCTCTTGAGGGTCCGCTTATCGGTAGCTACACAGGCCC (double strand) [EBV oriP DS region ChIP amplicon (nt 8586-9206)]
binds: [4] | [5] | [6] | [7] | [8]

For some assays here: Where a protein sequence is shown, tags need not be part of it. For some assays here: For at least one entry, the source does not settle the construct or the ends of the probe. For some assays here: At least one result comes from cells or an extract, where the contact may be indirect.
